Experimental data taken from ChEMBL document CHEMBL3997795, “Conjugates of 2,4-Dihydroxybenzoate and Salicylhydroxamate and Lipocations Display Potent Antiparasite Effects by Efficiently Targeting the Trypanosoma brucei and Trypanosoma congolense Mitochondrion” (J Med Chem, 2017).

How the values were obtained:
[1] = system: Trypanosoma brucei brucei; assay: Anti-parasitic activity against bloodstream trypomastigote stage of wild-type Trypanosoma brucei brucei Lister 427 after 48 hrs by alamar blue based fluorescence assay
[2] = Selectivity index, ratio of CC50 for HEK293T cells to EC50 for bloodstream form of Trypanosoma congolense IL3000; conditions: human

O=[As]c1ccccc1 (configuration not stated)
pEC50 [1]: 8.96
Ratio CC50/EC50 [2]: 0.036

pEC50: −log10 of the molar value.
